Measurements reported in paper PMC7081899, “Autologous Antibody Responses to an HIV Envelope Glycan Hole Are Not Easily Broadened in Rabbits” (Journal of Virology, 2020).

Biological target: T1, HIV-1 envelope glycoprotein (HIV-1 subtype B, B41, stabilised)
T1 construct: source: HEK 293F, purified (2G12 IgG Sepharose column, Superdex 200); copies: 3 + 3
Assay: negative-stain EM
Details: both partners purified

B1: 13B Fab (Fab, V domains shown)
VH: LEESGGGLVQPEGSLTLTCKASGFDFSDYHVQWVRQSPGKGLEFIGGIAYTGNIYYASWAKGRFTISKTSSTTVTLQMTTLTAADTATYFCARAYGYASAPYAQYFNLWGPGTLVTVSS
VL: DIVMTQTPASVSEPVGGTVTINCQASQSRGNNYLSWYQQKPGQSPSLLIYRTSTLASGVPSRFKGSGSGTQFTLTISDLECADAATYYCLYGYYSSRNPDFAFGGGTEVVVK
notes: also called nAb 13B; 13B antibody
stoichiometry N: 3 antibodies per trimer
